Results of unrelated studies side by side (data: NIAID ChemDB).

All rows: whole-cell or culture tests

Neighbouring rows are from separate reports.

| compound | endpoint | species | strain or isolate | value |
|---|---|---|---|---|
| O=C(O)NC[C@H]1CC(c2cc(F)c(N3CCN(C(=O)CO)CC3)c(F)c2)=NO1 | MIC | Staphylococcus epidermidis | UC12084 | 0.5 µg/mL |
| CC(=O)NC[C@H]1CN(c2ccc(-c3cnc(C(C)=O)s3)c(F)c2)C(=O)O1 | MIC | Staphylococcus epidermidis | UC12084 (methicillin-resistant) | ≤0.125 µg/mL |
| CCCCCCCCCCCC[N+](C)(C)COCCCCCCCCCCC | MBC | Staphylococcus aureus | ATCC 6538 | 23 µM |
| CCOC(=O)c1nc(-c2ccc(N3C[C@H](CNC(C)=O)OC3=O)cc2F)ns1 | MIC | Staphylococcus epidermidis | UC12084 (methicillin-resistant) | >16 µg/mL |
| Cc1c(NCCCO)c(F)cc2c(=O)c(C(=O)O)cn(-c3cc(N)c(F)cc3F)c12 | Mean MIC | Staphylococcus aureus | 27 isolates | 0.025 µg/mL |
| CC(=O)NC[C@H]1CN(c2ccc(-c3ccnn3C)c(F)c2)C(=O)O1 | MIC | Staphylococcus epidermidis | UC12084 (methicillin-resistant) | ≤0.5 µg/mL |
| CCCCCCCCCCCC[N+](C)(C)CSCCC | MBC | Staphylococcus aureus | ATCC 6538 | 15 µM |
| CC(=O)NC[C@H]1CN(c2ccc(-c3ccn[nH]3)c(F)c2)C(=O)O1 | MIC | Staphylococcus epidermidis | UC12084 (methicillin-resistant) | 1 µg/mL |
| O=C(O)NC[C@H]1CC(c2ccc(-n3ccnc3)c(F)c2)=NO1 | MIC | Staphylococcus epidermidis | UC12084 | 1 µg/mL |
| CNc1c(F)cc2c(=O)c(C(=O)O)cn(-c3cc(N)c(F)cc3F)c2c1C | Mean MIC | Staphylococcus aureus | 27 isolates | 0.007 µg/mL |
| CCCCCCCCCCCC[N+](C)(C)COCCCCCCCC | MBC | Staphylococcus aureus | ATCC 6538 | 6.38 µM |
| CC(=O)NC[C@H]1CN(c2ccc(-c3ccn(CCC#N)n3)c(F)c2)C(=O)O1 | MIC | Staphylococcus epidermidis | UC12084 (methicillin-resistant) | 2 µg/mL |
| CCCCCCCC[N+](C)(C)COC1CCCCCCCCCCC1 | MBC | Staphylococcus aureus | ATCC 6538 | 12.8 µM |
| O=C(O)NC[C@H]1CC(c2cc(F)c(N3CCOCC3)c(F)c2)=NO1 | MIC | Staphylococcus epidermidis | UC12084 | 2 µg/mL |
| CCCCCCCCCCCC[N+](C)(C)COCCC | MBC | Staphylococcus aureus | ATCC 6538 | 1.55 µM |
| COC(=O)N1CC=C(c2ccc(C3=NO[C@H](CNC(=O)O)C3)cc2)CC1 | MIC | Staphylococcus epidermidis | UC12084 | >16 µg/mL |

The last 2 rows once more:

{"compound": "CCCCCCCCCCCC[N+](C)(C)COCCC", "endpoint": "MBC", "species": "Staphylococcus aureus", "strain or isolate": "ATCC 6538", "value": "1.55 µM"}
{"compound": "COC(=O)N1CC=C(c2ccc(C3=NO[C@H](CNC(=O)O)C3)cc2)CC1", "endpoint": "MIC", "species": "Staphylococcus epidermidis", "strain or isolate": "UC12084", "value": ">16 µg/mL"}